In general, Kd refers to the constant that tells how readily two partners part at equilibrium. For orientation: koff means a measure of how fast the partners let go of each other. A word on the kon: it is the second-order rate constant of association.

From patent US20210188921A1 come the findings set out here.

Assay [1] has as its target BG505.DS-SOSIP.3mut.6R.664 (HIV-1 strain BG505). Description: SPR, single-cycle kinetics (as summed up in the conclusion). Background: In SPR one partner is held on a chip, and binding of the other changes the refractive index at the surface.
The target is the same in assay [2]. Description: SPR, single-cycle kinetics, trimer captured on immobilized 2G12, sCD4 injected.
In assay [3] the target is BG505.DS-SOSIP.6R.664 (HIV-1 strain BG505). The description is as above.
Assay [4] concerns the target BG505.DS-SOSIP.3mut.6R.664 (HIV-1 strain BG505). Nature of the assay: SPR single-cycle kinetics, trimer captured on immobilised 2G12, sCD4 injected, 1:1 Langmuir fit; standard error in parentheses.
Assay [5] concerns the target BG505.DS-SOSIP.4mut.6R.664 (HIV-1 strain BG505). The description is as above.
Assay [6] addresses BG505.DS-SOSIP.6R.664 (HIV-1 strain BG505). The description is as above.
For a further assay, the target named is DS-SOSIP.2mut. Described as above.
The next assay concerns the target DS-SOSIP.5mut. The assay is described as above.
Assay [7] deals with DS-SOSIP.A329P (HIV-1 strain BG505). The assay is described as above.
Assay [8] has as its target BG505 SOSIP.6R.664 (HIV-1 strain BG505). Description: SPR, single-cycle kinetics, trimer captured on immobilized 2G12, sCD4 injected.
Assay [9] has the same target. Description: SPR single-cycle kinetics, trimer captured on immobilised 2G12, sCD4 injected, 1:1 Langmuir fit; standard error in parentheses.

As to “soluble CD4 (from UniProt P01730 26-396) (receptor; other documents disagree on this pair)”, the Kd is 0.4 µM in assay [1]; 0.011 µM in [3]; 0.357 µM in assay [4]; 0.363 µM in assay [5]; 0.0113 µM in assay [6]; 0.379 µM with DS-SOSIP.2mut. The Kd was 0.4 µM in the assay with DS-SOSIP.5mut and 0.0114 µM in [7]. Also, the fold reduction of sCD4 binding affinity (Kd) against DS-SOSIP in assay [2] was 30 to 40 fold. Moreover, the koff stood at 0.0115 s⁻¹ in assay [4]; 0.012 s⁻¹ in assay [5]; 0.00111 s⁻¹ in assay [6]; 0.0117 s⁻¹ with DS-SOSIP.2mut; 0.0142 s⁻¹ with DS-SOSIP.5mut; 0.0012 s⁻¹ in assay [7]. Further, the on-rate (kon) in assay [4] was 32200 M⁻¹ s⁻¹; in [5], 33000 M⁻¹ s⁻¹; in assay [6] it was 98200 M⁻¹ s⁻¹; in the assay with DS-SOSIP.2mut, 30800 M⁻¹ s⁻¹; in the assay with DS-SOSIP.5mut, 35400 M⁻¹ s⁻¹; in assay [7], 105000 M⁻¹ s⁻¹.

Regarding “soluble CD4 (from UniProt P01730 26-396) (receptor)”, in assay [8], the Kd stood at 0.0014 µM. Also, in [9], the Kd was determined as 0.00108 µM, the dissociation rate constant (koff) stood at 0.000112 s⁻¹ and the kon came to 103000 M⁻¹ s⁻¹.
